Results of unrelated studies side by side (data: NIAID ChemDB).

Common to all: host cell toxicity; cells: Huh7; endpoint: CC50

Blank or dashed fields: not listed here. Lines come from different laboratories, so protocols vary. CCn: concentration that lowers growth or viability of the cells by n%.

| compound | method | value |
|---|---|---|
| COc1c(C)c2c(c(O)c1C/C=C(\C)CCC(=O)OCCN1CCOCC1)C(=O)OC2 |  | 2.3 µM |
| O=C1COC2(CCN(C(=O)c3nn4c(C(F)(F)F)cc(C5CC5)cc4c3Cl)CC2)OC1 | ATP | >50 µM |
| CN(C)C(=O)Cn1c(-c2ccc(Cl)cc2)c(C2CCCCC2)c2sc(C(=O)O)cc21 |  | >30 µM |
| CCCC(NC(=O)[C@@H]1C2CCCC2CN1C(=O)[C@@H](NC(=O)[C@@H](NC(=O)c1cnccn1)[C@@H](C)CC)C(C)(C)C)C(=O)C(=O)NC1CC1 |  | >100 µM |
| O=C(O)c1c(-c2ccco2)nc(NCc2nc3ccccc3[nH]2)[nH]c1=O | MTT | 964 µM |
| O=C(c1nn2c(C(F)(F)F)cc(C3CC3)cc2c1Cl)N1CCC2(CC1)OCC1(CO2)CC(O)C1 | ATP | >50 µM |
| N#Cc1c(-c2ccc(O)cc2)nc(SCc2nc3ccccc3[nH]2)[nH]c1=O | MTT | 265 µM |
| COc1ccc(-c2c(C3CCCCC3)c3sc(C(=O)O)cc3n2CC(=O)N(C)C2CCN(C(C)C)C2)cc1 |  | >10 µM |
| O=C(O)c1c(-c2ccc(Cl)cc2)nc(SCc2nc3ccccc3[nH]2)[nH]c1=O | MTT | 523 µM |
| NC(=O)c1ncn([C@@H]2O[C@H](CO)[C@@H](O)[C@H]2O)n1 |  | 75 µM |
| CCCC(NC(=O)[C@@H]1C2CCCC2CN1C(=O)[C@@H](NC(=O)[C@@H](CC(C1CCCCC1)C1CCCCC1)NC(=O)c1cnccn1)C(C)(C)C)C(=O)C(=O)NC1CC1 |  | 45.5 µM |
| CN1CCCC(CN(C)C(=O)Cn2c(-c3ccccc3)c(C3CCCCC3)c3sc(C(=O)O)cc32)C1 |  | >30 µM |
| CCC[C@H](NC(=O)[C@@H]1C2CCCC2CN1C(=O)[C@@H](NC(=O)[C@@H](NC(=O)c1cnccn1)C1CCCCC1)C(C)(C)C)C(=O)C(=O)N[C@@H](C)Cc1ccccc1 |  | 34.3 µM |
| O=C(c1nn2c(C(F)(F)F)cc(C3CC3)cc2c1Cl)N1CCC2(CC1)OCCCCO2 | ATP | >25 µM |
| O=C(O)c1c(-c2ccccc2O)nc(SCc2nc3ccccc3[nH]2)[nH]c1=O | MTT | 766 µM |
| CC(C)OC(=O)[C@H](C)N[P@](=O)(OC[C@H]1O[C@@](C#N)(c2ccc3c(N)ncnn23)[C@](C)(O)[C@@H]1OC(=O)C(C)C)Oc1ccccc1 | ATP | 29 µM |
| N#Cc1c(-c2ccccc2)nc(SCc2nc3ccccc3[nH]2)[nH]c1=O | MTT | 245 µM |
| O=C(c1nn2c(C(F)(F)F)cc(C3CC3)cc2c1Cl)N1CCC2(CC1)OCC(O)CO2 | ATP | >50 µM |
| CN(C)Cc1c(C(=O)O)sc2c(C3CCCCC3)c(-c3ccc(Cl)cc3)n(C)c12 |  | >30 µM |
| CCC[C@H](NC(=O)[C@@H]1C2CCCC2CN1C(=O)[C@@H](NC(=O)[C@@H](NC(=O)c1cnccn1)C1CCCCC1)C(C)(C)C)C(=O)C(=O)N[C@@H](C)CC |  | 53.7 µM |
| C[C@H]1C[C@@H]2[C@H]([C@@H](O)C[C@@]3(C)[C@H]2CC[C@]3(O)C(=O)CO)[C@@]2(C)C=CC(=O)C=C12 |  | 300 µM |
| N#Cc1c(-c2ccc(F)cc2)nc(NCc2nc3ccccc3[nH]2)[nH]c1=O | MTT | 643 µM |
| O=C(c1nn2c(C(F)(F)F)cc(C3CC3)cc2c1Cl)N1CCCC2(C1)OCCCO2 | ATP | >50 µM |
| COC(=O)NC[C@H](C(=O)N1CCCC1c1ncc(-c2ccc(-c3ccc(-c4cnc(C5CCCN5C(=O)[C@@H](NC(=O)OC)C(C)C)[nH]4)cc3)cc2)[nH]1)C(C)C | MTT | >200 µM |
| C[C@@]1(O)[C@H](O)[C@@H](CO)O[C@H]1n1cnc2c(N)ncnc21 | ATP | >90 µM |
| O=C(c1nn2c(C(F)(F)F)cc(C3CC3)cc2c1Cl)N1CCC2(CC1)OCC1(CC1)CO2 | ATP | >50 µM |

Repeating the final 2 entries:

compound | method | value
C[C@@]1(O)[C@H](O)[C@@H](CO)O[C@H]1n1cnc2c(N)ncnc21 | ATP | >90 µM
O=C(c1nn2c(C(F)(F)F)cc(C3CC3)cc2c1Cl)N1CCC2(CC1)OCC1(CC1)CO2 | ATP | >50 µM